From ChEMBL document CHEMBL3758177, “Synthesis and biological evaluation of novel phosphoramidate derivatives of coumarin as chitin synthase inhibitors and antifungal agents” (Eur J Med Chem, 2016)

System: Candida albicans
Test: Antifungal activity against Candida albicans CMCC 76615 at 100 ug/ml

## COc1ccc2nc(NP(=O)(Oc3ccc(Cl)cc3)n3cnc4c(Cl)ccnc43)sc2c1 (stereo unspecified)
  diameter of the inhibition zone (DIZ): 16.5 mm
